Source: the supplement of paper PMC3578754
Fold change is the IC50 on the isolate divided by the IC50 on a reference virus; 1 = unchanged, higher = more resistant. Changes are given against the subtype B consensus. No active / inactive call. The values were gathered from many studies (numbered anew) with different assays, which the source does not name. Most viruses are clinical isolates; some are laboratory strains or clones with known resistance changes. Isolates with mixed residues are left out; stretches that were not sequenced show no change. Round top values that many isolates share are read here as limits; other very high values and 0.1 may be limits too.

Legend:
Assay in all cases: fold change of IC50 against reference virus; higher = more resistant
[1] = compound: CC(C)Nc1cccnc1N1CCN(C(=O)c2cc3cc(NS(C)(=O)=O)ccc3[nH]2)CC1 [delavirdine]
Protocol: (§1)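 Cell-culture drug susceptibility tests of virus bearing the reverse transcriptase of each isolate, gathered from many studies.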

[2] = compound: Cc1ccnc2c1NC(=O)c1cccnc1N2C1CC1 [nevirapine]
Protocol: as §1

[3] = compound: O=C1Nc2ccc(Cl)cc2[C@@](C#CC2CC2)(C(F)(F)F)O1 [efavirenz]
Protocol: as §1

Test System: HIV-1 isolate 649 (reverse transcriptase changes: K101E K102Q S162C K277R, study 110)
- fold change of IC50 against reference virus [1]: 4.9
- fold change of IC50 against reference virus [2]: 11.6
- fold change of IC50 against reference virus [3]: 5

Test System: HIV-1 isolate 245 (reverse transcriptase changes: K11T K20R V21I V35T T39R D123N T165I K173S D177E V179I Y181C G196E I202V Q207A R211K V245Q E248D S251I K277R T286A E291D P294T, study 14)
- fold change of IC50 against reference virus [1]: 17
- fold change of IC50 against reference virus [2]: 148
- fold change of IC50 against reference virus [3]: 0.7

Test System: HIV-1 isolate 656 (reverse transcriptase changes: K20R V35T V60I D121H K122E I135T K173L Q174K D177E T200A Q207A R211S V245K D250E T286A E291D V292I I293V E312D A327V, study 14)
- fold change of IC50 against reference virus [1]: 1.3
- fold change of IC50 against reference virus [2]: 1
- fold change of IC50 against reference virus [3]: 1.5

Test System: HIV-1 isolate 1368 (reverse transcriptase changes: K102Q K103R S162C I178V K277R I293V K347R R358K V435I S468P, study 111)
- fold change of IC50 against reference virus [1]: 1
- fold change of IC50 against reference virus [2]: 1.1
- fold change of IC50 against reference virus [3]: 1.3

Test System: HIV-1 isolate 1337 (reverse transcriptase changes: K20R V21I V35T T39G V60I K103N K122E D123N K173S Q174K D177E V179I Q207A R211N V245Q A272P E291D I293V P294T E312D D324E I326R, study 14)
- fold change of IC50 against reference virus [1]: 22
- fold change of IC50 against reference virus [2]: 11
- fold change of IC50 against reference virus [3]: 6.6

Test System: HIV-1 isolate 1244 (reverse transcriptase changes: K102Q E138A S162C K277R, study 53)
- fold change of IC50 against reference virus [1]: 1
- fold change of IC50 against reference virus [2]: 1
- fold change of IC50 against reference virus [3]: 1

Test System: HIV-1 isolate 1532 (reverse transcriptase changes: V35T V60I K103N D121H K122E I135T K173L Q174K D177E V179I T200A Q207A R211S V245K D250E T286A E291D V292I I293V E312D K323R, study 14)
- fold change of IC50 against reference virus [1]: 73
- fold change of IC50 against reference virus [2]: 62
- fold change of IC50 against reference virus [3]: 23

Test System: HIV-1 isolate 1537 (reverse transcriptase changes: K101P K102Q S162C I178V K277R I293V K347R R358K V435I S468P, study 111)
- fold change of IC50 against reference virus [1]: 47
- fold change of IC50 against reference virus [2]: 171
- fold change of IC50 against reference virus [3]: 26

Test System: HIV-1 isolate 749 (reverse transcriptase changes: K102Q S162C Y181C G190A K277R, study 53)
- fold change of IC50 against reference virus [1]: 20
- fold change of IC50 against reference virus [2]: 680
- fold change of IC50 against reference virus [3]: 12

Test System: HIV-1 isolate 1581 (reverse transcriptase changes: K102Q E138A S162C Y188L K277R, study 53)
- fold change of IC50 against reference virus [1]: 75
- fold change of IC50 against reference virus [2]: 680
- fold change of IC50 against reference virus [3]: 150

Test System: HIV-1 isolate 864 (reverse transcriptase changes: M41L L74I K102Q S162C Y181C M184V L210W R211K T215Y L228R M230L K277R I293V T296S, study 70)
- fold change of IC50 against reference virus [1]: 161
- fold change of IC50 against reference virus [2]: 600
- fold change of IC50 against reference virus [3]: 5.3

Test System: HIV-1 isolate 646 (reverse transcriptase changes: K101E K102Q V108I S162C G190A K277R, study 53)
- fold change of IC50 against reference virus [1]: 200
- fold change of IC50 against reference virus [2]: 680
- fold change of IC50 against reference virus [3]: 270

Test System: HIV-1 isolate 494 (reverse transcriptase changes: K102Q K103N S162C Y181C K277R, study 110)
- fold change of IC50 against reference virus [1]: ≥ 250
- fold change of IC50 against reference virus [2]: 500
- fold change of IC50 against reference virus [3]: 31

Test System: HIV-1 isolate 1056 (reverse transcriptase changes: V35T E40D I50V K122E D123S I135T I142T K173S D177E V179I Q207A R211S F214L V245Q A272P E291D I293V P294T L310I E312D D324E, study 14)
- fold change of IC50 against reference virus [1]: 0.2
- fold change of IC50 against reference virus [2]: 0.3
- fold change of IC50 against reference virus [3]: 0.2

Test System: HIV-1 isolate 445 (reverse transcriptase changes: K102Q K103N S162C G190A K277R, study 110)
- fold change of IC50 against reference virus [1]: 37
- fold change of IC50 against reference virus [2]: 500
- fold change of IC50 against reference virus [3]: 213

Test System: HIV-1 isolate 15 (reverse transcriptase changes: K102Q K103N S162C P225H K277R, study 53)
- fold change of IC50 against reference virus [1]: 14
- fold change of IC50 against reference virus [2]: 150
- fold change of IC50 against reference virus [3]: 167

Test System: HIV-1 isolate 1640 (reverse transcriptase changes: K102Q S162C Y181C M230L K277R, study 70)
- fold change of IC50 against reference virus [1]: ≥ 250
- fold change of IC50 against reference virus [2]: 780
- fold change of IC50 against reference virus [3]: 25

Test System: HIV-1 isolate 1225 (reverse transcriptase changes: K102Q S162C G190C K277R I293V, study 55)
- fold change of IC50 against reference virus [1]: 0.1
- fold change of IC50 against reference virus [2]: 170
- fold change of IC50 against reference virus [3]: 170

Test System: HIV-1 isolate 1502 (reverse transcriptase changes: K102Q S162C G190Q K277R I293V, study 55)
- fold change of IC50 against reference virus [1]: 6
- fold change of IC50 against reference virus [2]: 600
- fold change of IC50 against reference virus [3]: 300

Test System: HIV-1 isolate 201 (reverse transcriptase changes: K102Q S162C G190T K277R I293V, study 55)
- fold change of IC50 against reference virus [1]: 0.1
- fold change of IC50 against reference virus [2]: 356
- fold change of IC50 against reference virus [3]: 150

Test System: HIV-1 isolate 398 (reverse transcriptase changes: V35T T39L K103N K122E D123G A158S K173S Q174K D177E I178V V179I T200A I202V Q207A V245M K277R L282C R284K T286V I293V, study 14)
- fold change of IC50 against reference virus [1]: 50
- fold change of IC50 against reference virus [2]: 29
- fold change of IC50 against reference virus [3]: 17

Test System: HIV-1 isolate 1583 (reverse transcriptase changes: K102Q S162C P225H K277R, study 53)
- fold change of IC50 against reference virus [1]: 0.2
- fold change of IC50 against reference virus [2]: 3
- fold change of IC50 against reference virus [3]: 2

Test System: HIV-1 isolate 727 (reverse transcriptase changes: A98G K102Q S162C G190S K277R, study 53)
- fold change of IC50 against reference virus [1]: 1
- fold change of IC50 against reference virus [2]: 680
- fold change of IC50 against reference virus [3]: 270

Test System: HIV-1 isolate 141 (reverse transcriptase changes: M41L V60I D67N L74V K102Q S162C G190E T215C K219E K277R I293V, study 55)
- fold change of IC50 against reference virus [1]: 4
- fold change of IC50 against reference virus [2]: 600
- fold change of IC50 against reference virus [3]: 300

Test System: HIV-1 isolate 1237 (reverse transcriptase changes: L100I K102Q K103N S162C K277R, study 53)
- fold change of IC50 against reference virus [1]: 190
- fold change of IC50 against reference virus [2]: 69
- fold change of IC50 against reference virus [3]: 680

Test System: HIV-1 isolate 339 (reverse transcriptase changes: K101E K102Q S162C G190S K277R, study 110)
- fold change of IC50 against reference virus [1]: 1.4
- fold change of IC50 against reference virus [2]: 500
- fold change of IC50 against reference virus [3]: ≥ 500

Test System: HIV-1 isolate 503 (reverse transcriptase changes: K102Q S162C I178V V179D K277R I293V K347R R358K V435I S468P, study 111)
- fold change of IC50 against reference virus [1]: 3.9
- fold change of IC50 against reference virus [2]: 2.1
- fold change of IC50 against reference virus [3]: 3.4

Test System: HIV-1 isolate 354 (reverse transcriptase changes: K102Q S162C Y188L K277R, study 110)
- fold change of IC50 against reference virus [1]: 9
- fold change of IC50 against reference virus [2]: 500
- fold change of IC50 against reference virus [3]: 109

Test System: HIV-1 isolate 1272 (reverse transcriptase changes: K102Q S162C G190A K277R I293V, study 55)
- fold change of IC50 against reference virus [1]: 0.4
- fold change of IC50 against reference virus [2]: 96
- fold change of IC50 against reference virus [3]: 7

Test System: HIV-1 isolate 1490 (reverse transcriptase changes: K11T K20R V21I V35T T39K K43E D123N K173T Q174K D177E V179I Y181S I202V Q207A R211S V245Q E248D T286A E291D V292I I293V E312D, study 14)
- fold change of IC50 against reference virus [1]: 6.9
- fold change of IC50 against reference virus [2]: 35
- fold change of IC50 against reference virus [3]: 1.1

Test System: HIV-1 isolate 1420 (reverse transcriptase changes: V21I V35T T39S K49Q E138G K173S Q174K D177E V179I Y181C Q207A R211N V245Q A272P E291D I293V P294T E312D D324E I326R, study 14)
- fold change of IC50 against reference virus [1]: 6.6
- fold change of IC50 against reference virus [2]: 23
- fold change of IC50 against reference virus [3]: 0.3

Test System: HIV-1 isolate 672 (reverse transcriptase changes: K11T K20R V21I V35T T39K V60I K103N K122E D123N K173A D177G V179I G196E T200A I202V Q207A V245Q E248D T286A E291D I293V P294T K311R E312D, study 14)
- fold change of IC50 against reference virus [1]: 25
- fold change of IC50 against reference virus [2]: 16
- fold change of IC50 against reference virus [3]: 9.5
